Pooled drug test results. Numbers come from NIAID ChemDB, via PubChem.

All rows: target-level tests

Percent inhibition refers to the dose given; in toxicity tests it is the harm to the cells. Fold resistance: result on the changed form divided by that on wild type. An empty or dashed field is not shown. ICn is the concentration giving n% inhibition. Neighbouring rows are from separate reports. Two numbers with a dash give a range or band.

smiles	changes	strain	tested at	protein	organism	method	measure	result
O=C(O)c1nc(-c2cccc(NS(=O)(=O)c3cccs3)c2)[nH]c(=O)c1O				HCV polymerase	Hepatitis C virus		IC50	<100 µM
CSCC[C@H](NC(=O)[C@H](CCC(=O)O)NC(=O)[C@H](CC(=O)O)NC(C)=O)C(=O)N[C@@H](CCC(=O)O)C(=O)N[C@@H](CC1CCCCC1)C(=O)N[C@@H](CS)C(=O)O				HCV NS3 protease	Hepatitis C virus		IC50	0.36 µM
Cc1cc(S(=O)(=O)Nc2cc(-c3cc(C(F)(F)F)cc(C(F)(F)F)c3)sc2C(=O)O)c(C)cc1Cl				NS3 ATPase	Hepatitis C virus		IC50	>20 µM
CC(=O)N[C@@H](CC(=O)O)C(=O)N[C@@H](CCC(=O)O)C(=O)N[C@H](C(=O)N[C@@H](CCC(=O)O)C(=O)N[C@@H](CC1CCCCC1)C(=O)N[C@@H](CS)C(=O)O)C(C)C				HCV NS3 protease	Hepatitis C virus		IC50	0.33 µM
C[C@@]1(O)[C@H](O)[C@@H](COP(=O)(O)OP(=O)(O)OP(=O)(O)O)O[C@@]1(C#N)c1ccc2c(N)ncnn12	S282T	1b Con1		Nonstructural protein 5B	Hepatitis C virus	radiometric	fold resistance	240
CC(=O)N[C@H](C(=O)N[C@@H](CCC(=O)O)C(=O)N[C@@H](CC1CCCCC1)C(=O)N[C@@H](CS)C(=O)O)C(c1ccccc1)c1ccccc1				HCV NS3 protease	Hepatitis C virus		IC50	30 µM
Cc1ccccc1C(=O)Nc1cc(-c2ccccc2)sc1C(=O)O				NS3 ATPase	Hepatitis C virus		IC50	5–20 µM
CC(=O)N[C@@H](CC(=O)O)C(=O)N[C@H](CC(=O)O)C(=O)N[C@@H](CC(C)C)C(=O)N[C@@H](CCC(=O)O)C(=O)N[C@@H](CC1CCCCC1)C(=O)N[C@@H](CS)C(=O)O				HCV NS3 protease	Hepatitis C virus		IC50	0.122 µM
C[C@@]1(O)[C@H](O)[C@@H](COP(=O)(O)OP(=O)(O)OP(=O)(O)O)O[C@H]1n1ccc2c(N)ncnc21		GT-1b Con1		Nonstructural protein 5B	Hepatitis C virus	nucleotide incorporation	IC50	0.2 µM
CC(=O)N[C@@H](CC(=O)O)C(=O)N[C@H](CCC(=O)O)C(=O)N[C@H](C(=O)N[C@H](C(=O)N1C[C@H](OCc2cccc3ccccc23)C[C@H]1C(=O)NC1(C(=O)O)CC1)C(C)C)C1CCCCC1				Nonstructural protein 3 protease	Hepatitis C virus		IC50	0.013 µM
Cc1ccc(CNC(=O)Nc2cccc(-c3nc(C(=O)O)c(O)c(=O)[nH]3)c2)cc1				HCV polymerase	Hepatitis C virus		IC50	<100 µM
CN1CCN(c2cc(C(=O)Nc3ccc4[nH]ncc4c3)c(F)cc2F)CC1			10 µg/mL	Nonstructural protein 5B	Hepatitis C virus		inhibition	36%
CC[C@H](C)[C@H](NC(=O)[C@@H](NC(=O)[C@H](CCC(=O)O)NC(=O)[C@H](CC(=O)O)NC(C)=O)C(c1ccccc1)c1ccccc1)C(=O)N[C@@H](CC1CCCCC1)C(=O)N[C@@H](CS)C(=O)O				HCV NS3 protease	Hepatitis C virus		IC50	0.06 µM
CC1CCC(C(=O)N(CC2CC[NH2+]CC2)c2cc(-c3ccccc3)sc2C(=O)O)CC1.O=C([O-])C(F)(F)F				NS3 ATPase	Hepatitis C virus		IC50	<5 µM
CC(=O)N[C@@H](CC(=O)O)C(=O)N[C@@H](CCC(=O)O)C(=O)N[C@H](C(=O)N[C@@H](CCC(=O)O)C(=O)N[C@@H](CC1CCCCC1)C(=O)N[C@@H](CS)C(=O)O)C(c1ccccc1)c1ccccc1				Full-length NS3	Hepatitis C virus		IC50	0.06847 µM
C[C@@]1(O)[C@H](O)[C@@H](COP(=O)(O)OP(=O)(O)OP(=O)(O)O)O[C@H]1c1ccc2c(N)ncnn12		GT-1b Con1		Nonstructural protein 5B	Hepatitis C virus	nucleotide incorporation	IC50	0.37 µM
CC(=O)N[C@@H](CC(=O)O)C(=O)N[C@@H](CC(C(=O)O)C(=O)O)C(=O)N[C@@H](CC(C)C)C(=O)N[C@@H](CCC(=O)O)C(=O)N[C@@H](CC1CCCCC1)C(=O)N[C@@H](CS)C(=O)O				HCV NS3 protease	Hepatitis C virus		IC50	0.055 µM
Cc1ccccc1S(=O)(=O)Nc1cc(-c2ccc(F)c(Cl)c2)sc1C(=O)O				NS3 ATPase	Hepatitis C virus		IC50	5–20 µM
O=C(Nc1ccc2[nH]ncc2c1)c1cc(C2CCNCCN2)c(F)cc1F			0.1 µg/mL	Nonstructural protein 5B	Hepatitis C virus		inhibition	0%
O=C(O)c1sc(-c2ccccc2)cc1N(CC1CCNCC1)C(=O)c1ccccc1Cl				NS3 ATPase	Hepatitis C virus		IC50	<5 µM
O=C(Nc1cc(Cl)cc(Cl)c1)Nc1cccc(-c2nc(C(=O)O)c(O)c(=O)[nH]2)c1				HCV polymerase	Hepatitis C virus		IC50	<100 µM
C=CC(=O)NCC(=O)N1C[C@H](Oc2nccc3ccc(Br)cc23)C[C@H]1C(=O)N[C@]1(C(=O)NS(=O)(=O)C2CC2)C[C@H]1C=C		1b A156T		Nonstructural protein 3/4A	Hepatitis C virus	FRET	IC50	0.046 µM
O=C(Nc1ccc2cn[nH]c2c1)c1cc(N2CCNCC2)c(F)cc1F			10 µg/mL	Nonstructural protein 5B	Hepatitis C virus		inhibition	40%
CSCC[C@H](NC(=O)[C@H](CCC(=O)O)NC(=O)[C@H](CC(=O)O)NC(C)=O)C(=O)N[C@@H](CCC(=O)O)C(=O)N[C@@H](Cc1ccc2ccccc2c1)C(=O)N[C@@H](CS)C(=O)O				Full-length NS3	Hepatitis C virus		Ki	0.44 µM
CCN(CC)Cc1c(Cl)cccc1S(=O)(=O)NC(=O)Nc1cscc1-c1nc(C(=O)O)c(O)c(=O)[nH]1				HCV polymerase	Hepatitis C virus		IC50	<25 µM
CC[C@H](C)[C@H](NC(=O)[C@@H](NC(=O)[C@H](CCC(=O)O)NC(C)=O)C(c1ccccc1)c1ccccc1)C(=O)N[C@@H](CC1CCCCC1)C(=O)N[C@@H](CS)C(=O)O				Full-length NS3	Hepatitis C virus		IC50	1.67 µM
CC1CCC(C)(C(=O)N(c2cc(-c3ccccc3)sc2C(=O)O)C(C)C)CC1				NS3 ATPase	Hepatitis C virus		IC50	<5 µM
C[C@@]1(O)[C@H](O)[C@@H](COP(=O)(O)OP(=O)(O)OP(=O)(O)O)O[C@H]1c1cnn2c(N)ncnc12		GT-1b Con1		Nonstructural protein 5B	Hepatitis C virus	nucleotide incorporation	IC50	33 µM
O=C(Cc1ccc2ccccc2c1)Nc1cccc(-c2nc(C(=O)O)c(O)c(=O)[nH]2)c1				HCV polymerase	Hepatitis C virus		IC50	<100 µM
CC1CNCCC1C(=O)N(C(=O)c1ccc(Cl)cc1Cl)c1cc(-c2ccccc2)sc1C(=O)O.O=C(O)C(F)(F)F				NS3 ATPase	Hepatitis C virus		IC50	<5 µM
O=C(Nc1ccc2cn[nH]c2c1)c1cc(NCc2ccccn2)c(F)cc1F			0.01 µg/mL	Reverse transcriptase	Hepatitis B virus		inhibition	30%
CC(OC(=O)OC1CCCCC1)OC(=O)c1nc(-c2sccc2NC(=O)NCc2ccccc2Cl)[nH]c(=O)c1O				HCV polymerase	Hepatitis C virus		IC50	<50 µM
O=C(O)c1sc(-c2ccccc2)cc1NS(=O)(=O)c1cnc(Cl)c(Br)c1				NS3 ATPase	Hepatitis C virus		IC50	>20 µM
N[C@H](C(=O)Nc1ccsc1-c1nc(C(=O)O)c(O)c(=O)[nH]1)c1ccccc1				HCV polymerase	Hepatitis C virus		IC50	<25 µM
O=C(Nc1ccc2cn[nH]c2c1)c1cc(C2CCNCCN2)c(F)cc1F			0.01 µg/mL	Reverse transcriptase	Hepatitis B virus		inhibition	31%
O=C(O)c1nc(-c2sccc2NS(=O)(=O)c2cccc(C(F)(F)F)c2)[nH]c(=O)c1O				HCV polymerase	Hepatitis C virus		IC50	<25 µM
CC(=O)N[C@@H](CC(=O)O)C(=O)N[C@@H](CCC(=O)O)C(=O)N[C@@H](Cc1ccc(Cl)cc1)C(=O)N[C@@H](CCC(=O)O)C(=O)N[C@@H](CC1CCCCC1)C(=O)N[C@@H](CS)C(=O)O				HCV NS3 protease	Hepatitis C virus		IC50	0.3 µM
Cc1ccccc1S(=O)(=O)Nc1cc(Br)sc1C(=O)O				NS3 ATPase	Hepatitis C virus		IC50	5–20 µM